Construct, isoform or probe ends are uncertain for at least one entry. For some assays here: Weaker means in comparison with the reference protein, sequence or condition of that experiment.
Columns and labels:
[1] = biological target: HP1043 (HsrA) (UniProt O25684); test: DNase I footprinting; details: 10 mM Mg2+, 10 mM Tris-HCl pH 7.5, 50 mM NaCl, 10 mM MgCl2, 1 mM DTT, 0.01% Igepal CA-630, 10% glycerol (none for hydroxyl-radical), 300 ng salmon sperm DNA, ~15 fmol probe, 20 min, recombinant protein, protein details: N-terminal His, label: 5'-32P one strand, probe letters rebuilt from the primers and the genome, part of a longer …
[2] = biological target: HP1043 (HsrA) (UniProt O25684); test: hydroxyl-radical footprinting; details: 10 mM Mg2+, 0.8-3.3 uM dimer, two binding sites; 10 mM Tris-HCl pH 7.5, 50 mM NaCl, 10 mM MgCl2, 1 mM DTT, 0.01% Igepal CA-630, 10% glycerol (none for hydroxyl-radical), 300 ng salmon sperm DNA, ~15 fmol probe, 20 min; recombinant protein; protein details: N-terminal His; label: 5'-32P one strand; probe letters rebuilt from the primers and the genome; part of a longer …
[3] = protection saturated at 13.3 uM dimer (low affinity)

| Sequence | binding result [1, 3] | other results |
| --- | --- | --- |
| CCCTTTCAATTGCAAAGCAAACTTTTAAGAGTGATTCAAGAAAAAGAAATCACACGCCTTGGGGATAATAAGAGCGTTAAAATTGATGTTCGTTTCATTTCCGCTACCAACGCTAACATGAAAGAAAAAATCGCTGCGAAAGAATTCAGAGAGGATTTGTTTTTCCGCTTGCAGATTGTGCCTATAACTATCGCGCCTTTAAGAGAGAGGGTTGAAGAGATCTTACCCATTGCTGAAATCAAGCTTAAAGAAGTGTGCGATGCGTATCATTTGGGGCCAAAATCCTTTTCAAAAAACGCCGCGAAACGCCTTTTAGAATACTCTTGGCATGGGAATGTGCGAGAGCTTTTAGGCGTCGTGGAGAGAGCGGCGATTTTAAGCGAAGGAGCAGAAATCCAAGAAAAAGATTTGTTTTTGGAAAGGTAGTTTGCAAGGC (double strand) [flgR intragenic (pGEM0703)] | – | binding result ([1]; protection saturated at 1.7 uM dimer (high affinity)): binds |
| CGCTCTCATTTATTACATTGACCCTAAGGCTAAAAACGCCCATTTACCCCAGAATGTCCAATGCATTAATGAAAGCGCGGTGCATGCCATGCAAGATTTAATGCCCAAACTCATAGAAATGGCCTCTTAAGAGATGTTGAAATAATTTTTATTTTTTCAGCTAACGATTAGCAAAAACATGGTTTAATTGCTTCCATCGTTTGCTAAAAGTAATAATTAAAGGAGTTTGAGAGCCTGATGC (double strand) [PnuoA (pGEMp1260)] | binds more weakly | – |
| GATACACCTAATCCTCTGCTATTCTACTAAAAAATAGCTTAAATTCTAATTATAAAATGAGTTTAAAATAAAATTTAAAAACCCCCATTTTTTAAAAAATAGGGTTTCAATTGTTTGCGTTTGGTAAAAACAAACC (double strand) [PrpoD HY (pGEMp0088HY)] | – | binding result [2]: binds |
| TTACCAAACGCAAACAATTGAAACCCTATTTTTTAAAAAATGGGGGTTTTTAAATTTTATTTTAAACTCATTTTATAATTAGAATTTAAGCTATTTTTTAGTAGAATAGCAGAGGATTAGGTGTATCTTATCTATAGACCTAGCTTTTGGTTGAAAGCATGGGTTCTTATTTTATGGAGTGTCCAATGAAAAAGAAAGCTAACGAAGAAAAAGCCCCCAAAAGAGCTAAACAGGAAGCCAAAACAGAAGCCACACAGGAAAATAAAGCTAAAG (double strand) [PrpoD (pGEMp0088)] | binds more weakly | – |
| GCCCAATCCCATAAATATAGGTAAGGGCATACTCTACTCTCTTCTTTTTTGGTAAATCTACACCAGCAATCCTTGCCATGCTTTATCCTTGTCTTTGTTTGTGTTTAGGGGTAGCGCAGATCACTCTAATAACGCCCCTTCTTTTAATGATTTTGCACTTATCGCACATCTTTTTCACTGATGGCCTGACTTTCATGATTTTTCTCCTTTGAAAAAATTAGGCACTACTAAAAACTCTTATACTAACATATTTTCATTGAAATAACCCTTAAATTATTTATATCTAAAAGTTATCCGACCCTTGTCTAAGCTATAGGGCGTAAGCTCTAGCTTGACCCTATCGCCTAAAGCAATCCTAATATAGTGCATGCGCATCTTTCCAGAAATACGGCACAACACCACATGCTTATTGTCTAACTCCACCTTAAAAGTGGCGTTAGGCAACGCCTCAATCACTTTCCCATCC (double strand) [Prpl36 (pGEMp1296)] | binds more weakly | – |
